PubChem BioAssay AID1224833 | University of Georgia | 2016

Assay: 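Host factors restraining rotavirus as candidate antiviral genes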 (primary screen)
Cell system: monkey MA104 kidney cells
Reagent: siRNA pool against human genes, 50 nM
Time to read-out: 48 h knock-down before infection; read 24 h after infection
Conditions: infection with rotavirus strain RV3 two days after transfection; infectious dose for this stage not given
Detection: 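Rotavirus antigen per well by fluorescent immunoassay, normalised to non-targeting control wells on each plate and given as a standard z-score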
Reading the numbers: z-score vs non-targeting control: higher = more rotavirus replication than with non-targeting control
Hit rule: In these data the active calls have z-score vs non-targeting control at about -1 or lower, or at about 1 or higher
Calls: active = z-score beyond 1 either way; inactive = z-score within 1 of zero
Here is one part, drawn at random, of about 12,000 reagents tested. Over the whole deposit, about 5,600 (46%) were called active. 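Active calls cover z-scores past 1 in both directions, so they include lowered as well as raised rotavirus replication.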

Silencing of PLOD1 gave: z-score vs non-targeting control -0.589; inactive.
After knock-down of OR52N5, the record shows z-score vs non-targeting control -0.468; inactive.
Knock-down of DESI2 resulted in: z-score vs non-targeting control -0.285; inactive.
After knock-down of DERL3, the record shows z-score vs non-targeting control 0.794; inactive.
Against RPGR, the entry reads z-score vs non-targeting control -0.597; inactive.
SERPINA10 gave z-score vs non-targeting control -1.19; active.
After knock-down of CA7, the screen gave z-score vs non-targeting control 1.4; active.
For FAM111B, the values are z-score vs non-targeting control 0.275; inactive.
With knock-down of CCDC25 the results were z-score vs non-targeting control -0.743; inactive.
ENPP6 showed z-score vs non-targeting control -1.26; active.
GAGE8 scored z-score vs non-targeting control 1.24; active.
Against MYL7, the entry reads z-score vs non-targeting control -0.794; inactive.
Knock-down of CYTH1 gave: z-score vs non-targeting control 0.304; inactive.
Against C8G the deposit lists z-score vs non-targeting control -0.588; inactive.
For SOD2, the entry reads z-score vs non-targeting control 0.898; inactive.
ENTPD1 showed z-score vs non-targeting control -1.39; active.
After knock-down of CALCB the results were z-score vs non-targeting control -0.0193; inactive.

Taken from above.
For “Outcome”, MYL7 shows inactive
Value of ENPP6 in “z-score vs non-targeting control”: -1.26

Next results follow.
ACTG2 gave z-score vs non-targeting control -1.18; active.
MRM3 gave z-score vs non-targeting control -0.48; inactive.
With knock-down of ZNF573, the record shows z-score vs non-targeting control -1.71; active.
Against RDM1 the deposit lists z-score vs non-targeting control 2.06; active.
After knock-down of GOLGA1 the results were z-score vs non-targeting control -1.3; active.
Knock-down of IER3 gave: z-score vs non-targeting control 1.27; active.
For CAD the deposit lists z-score vs non-targeting control 0.863; inactive.
After knock-down of NPTXR the results were z-score vs non-targeting control -6.17; active.
For BFSP1, the values are z-score vs non-targeting control 0.68; inactive.
After knock-down of MRPL38, the screen gave z-score vs non-targeting control -1.96; active.
After knock-down of BCL2L14, the record shows z-score vs non-targeting control 1.13; active.
Knock-down of H3C10 came out at: z-score vs non-targeting control 1.1; active.
With knock-down of ZNF649, the screen gave z-score vs non-targeting control -2.57; active.
With knock-down of COL14A1 the results were z-score vs non-targeting control -0.777; inactive.
After knock-down of TRAK1 the results were z-score vs non-targeting control 0.133; inactive.
